A short description of data set [1]: general procedure: Fmoc solid-phase peptide synthesis; Rink amide resin; DIC/OxymaPure. The conditions noted are these: for final HPLC purity: 220 nm.
A short description of data set [2]: Fmoc solid-phase peptide synthesis; Rink amide resin; DIC/OxymaPure. The conditions noted are these: whole synthesis, 220 nm.

For some of these results: HELM strings list residues between dots; [ac] is acetyl, [am] amide, other brackets name non-standard units.

Consider “PEPTIDE1{[ac].S.I.D.Q.I.N.A.T.F.V.D.I.E.Y.E.I.K.K.L.E.E.V.A.K.K.L.E.E.S.Y.I.D.L.K.E.L.G.S.G.S.G.C.[am]}$$$$V2.0”, for which, in data set [1] (lipidation step), the “final HPLC purity” value was 99.8%.

As to “PEPTIDE1{[ac].D.I.S.G.I.N.A.S.V.V.N.I.Q.K.E.I.D.R.L.N.E.V.A.K.N.L.N.E.S.L.I.D.L.Q.E.L.G.S.G.S.G.C.[am]}$$$$V2.0”, the “final HPLC purity” value in data set [1] (lipidation step) was 95.4%. In addition, the difficulty met result in data set [1] (whole synthesis) is “Technical issues encountered during synthesis, purification, and analysis of HRC and HRC-L peptides”.

For “PEPTIDE1{[ac].S.L.D.Q.I.N.V.T.F.L.D.L.E.Y.E.M.K.K.L.E.E.A.I.K.K.L.E.E.S.Y.I.D.L.K.E.L.[am]}$$$$V2.0”, in data set [1] (whole synthesis), the “final HPLC purity” value is 95.0%.

“PEPTIDE1{[ac].S.I.D.Q.I.N.A.T.F.V.D.I.E.Y.E.I.K.K.L.E.E.V.A.K.K.L.E.E.S.Y.I.D.L.K.E.L.[am]}$$$$V2.0”: the “final HPLC purity” value in data set [1] (whole synthesis) is on record as 99.8%.

Turning to “PEPTIDE1{[ac].D.I.S.Q.I.N.A.S.V.V.N.I.E.Y.E.I.K.K.L.E.E.V.A.K.K.L.E.E.S.L.I.D.L.Q.E.L.[am]}$$$$V2.0”, the “final HPLC purity” value in data set [1] (whole synthesis) was found to be 99.3%.

Take “PEPTIDE1{[ac].P.D.V.D.L.G.D.I.S.Q.I.N.A.S.V.V.N.I.E.Y.E.I.K.K.L.E.E.V.A.K.K.L.E.E.S.L.I.D.L.Q.E.L.[am]}$$$$V2.0”: the “final HPLC purity” value in data set [1] (whole synthesis) is recorded as 96.9%.

Turning to “Ac –I E Y E I K K L E E V A K K L E E S L - NH2”, the “final HPLC purity” value in data set [1] (whole synthesis) was 99.2%.

On to “Ac –IEYEIKKLEEVAKKLEESLIDLQEL - NH2”, for which, in data set [2], the “final HPLC purity” value was determined as 98.5%.

With “PEPTIDE1{[ac].D.I.S.Q.I.N.A.S.V.V.N.I.E.Y.E.I.K.K.L.E.E.V.A.K.K.L.E.E.S.L.I.D.L.Q.E.L.G.S.G.S.G.C.[am]}$$$$V2.0”, the “final HPLC purity” value in data set [1] (lipidation step) turned out to be 98.4%.

For the origin of these results see paper PMC11915835 (Journal of Virology, 2025).
